In this data set the test system is mice (9 to 21 days old). Briefly: Bioassay by intracranial injection in mice. Particulars: highest doses (20 nmoles/g).

Regarding `NC(=O)[C@@H]1CSSC[C@H](N)C(=O)N2C[C@H](O)C[C@H]2C(=O)N[C@H](Cc2c[nH]c3ccccc23)C(=O)N[C@@H](CCC(=O)O)C(=O)N2CCC[C@H]2C(=O)N[C@@H](Cc2c[nH]c3ccccc23)C(=O)N1`, the “Lethality on i.c. injection” value is given as “did not cause any lethality”.

The values above are taken from patent US6441132B1, “Contryphan peptides” (dated 2002).
